Anti-infective test results gathered from many reports (values: NIAID ChemDB through PubChem).

Shared fields: tests in culture; agent: HIV-1; read by: p24; measure: EC90

ECn is the concentration giving n% inhibition of infection, replication or growth. Two numbers with a dash give a range or band. Blank or dashed fields: not listed here. Neighbouring rows are from separate reports.

compound | strain | changes | cells | result
Cc1cn([C@H]2C=C[C@@H](CO)O2)c(=O)[nH]c1=O | IIIB |  | PBMC | 1.47 µM
CCC[C@@]1(CCc2ccccc2)CC(O)=C([C@H](CC)c2cccc(NS(=O)(=O)c3ccc(C(F)(F)F)cn3)c2)C(=O)O1 | 410 clinical isolates AZT-resistant |  | PBMC | 0.04 µM
COC(=O)[C@H](C)NP(=O)(OC[C@@H]1C=C[C@H](n2cc(C)c(=O)[nH]c2=O)O1)Oc1ccc(Br)cc1 | IIIB |  | PBMC | 0.052 µM
Cc1cn([C@H]2C[C@H](N=[N+]=[N-])[C@@H](CO)O2)c(=O)[nH]c1=O | XM-T69SSS | RT-T69SSS L210W T215Y | PBMC | 56 µM
CCCCN1C(=O)C(CC2CCCCC2)NC(=O)C12CCN(Cc1ccc3c(c1)OCCO3)CC2 | JR-FL R5 |  | PBMC | >1 µM
CC(C)(C)NC(=O)[C@@H]1CC(=O)CN1C(=O)[C@@H](O)[C@H](Cc1ccccc1)NC(=O)[C@H](CC(N)=O)NC(=O)OCc1ccccc1 | IIIB |  | CEM | 1.5 µM
CC(C)CN(C[C@@H](O)[C@H](Cc1ccccc1)NC(=O)[C@@H](NC(=O)CNCc1cccc(F)c1)C(C)(C)C)S(=O)(=O)c1ccc(N)cc1 | NL4-3 |  | PBMC | 0.02 µM
CC(C)Nc1cccnc1N1CCN(C(=O)c2cc3cc(NS(C)(=O)=O)ccc3[nH]2)CC1 | IIIB |  | MT-4 | 0.05 µM
CC(C)(C)OC(=O)N[C@@H](Cc1ccccc1)[C@@H](O)C[C@@H](Cc1ccc(OCC(=O)O)cc1)C(=O)N[C@H]1c2ccccc2C[C@H]1O | IIIB |  | MT-4 | >10 µM
CC(C)CN(C[C@@H](O)[C@H](Cc1ccccc1)NC(=O)O[C@H]1CCOC1)S(=O)(=O)c1ccc(N)cc1 | IIIB |  | CEM + CEM-SS | 0.026 µM
Cc1cccc(C)c1OCC(=O)N[C@@H](Cc1ccccc1)[C@@H](O)C[C@H](Cc1ccccc1)NC(=O)[C@H](C(C)C)N1CCCNC1=O | HXB2 | PR-L10R M46I L63P V82T I84V | PBMC | 0.33 µM
Cc1cc(O)c(C)c(C(=O)N[C@@H](Cc2ccc(-c3ccccc3)cc2)[C@H](O)C(=O)N2C[C@@H](Cl)C[C@H]2C(=O)NC(C)(C)C)c1 | IIIB |  | CEM | 0.048 µM
Nc1ccn([C@H]2CC[C@@H](CO)O2)c(=O)n1 | IIIB |  | H9 | 0.206 µM
CC(C)(C)NC(=O)[C@@H]1C[C@@H]2CCCC[C@@H]2CN1C[C@@H](O)[C@H](Cc1ccccc1)NC(=O)[C@H](CC(N)=O)NC(=O)c1ccc2ccccc2n1 | NL4-3 X4 |  | PBMC | 0.048 µM
Cc1c(O)cc(F)cc1C(=O)N[C@@H](Cc1ccc2ccccc2c1)[C@H](O)C(=O)N1C[C@@H](Cl)C[C@H]1C(=O)NC(C)(C)C | IIIB |  | CEM | 0.031 µM
CC(C)(C)NC(=O)[C@@H]1CCCN1C(=O)[C@@H](O)[C@H](Cc1ccccc1)NC(=O)[C@H](CC(N)=O)NC(=O)COc1cccc2ccccc12 | RF |  | MT-2 | 0.14–0.15 µM
CC(C)(C)NC(=O)[C@@H]1CCCN1C(=O)[C@@H](O)[C@H](Cc1ccccc1)NC(=O)[C@H](CC(N)=O)NC(=O)c1cnc2ccccc2n1 | IIIB |  | CEM | 0.5 µM
CC(C)(C)NC(=O)[C@@H]1CN(Cc2cccnc2)CCN1C[C@@H](O)C[C@@H](Cc1ccccc1)C(=O)N[C@H]1c2ccccc2C[C@H]1O | BR60 (PR L10I K20R M36I/V P63L/S L90M) | PR-L10I K20R M36I/V P63L/S L90M | PBMC | 0.02 µM
Cc1cn([C@H]2C[C@H](N=[N+]=[N-])[C@@H](CO)O2)c(=O)[nH]c1=O | RF |  | PBMC | 0.002 µM
Cc1ccc(C[C@H](NC(=O)c2cccc(O)c2C)[C@H](O)C(=O)N2C[C@@H](Cl)C[C@H]2C(=O)NC(C)(C)C)cc1C | IIIB |  | CEM | 0.051 µM
CC[C@H](C)[C@H](NC(=O)[C@H](C(C)C)[C@@H](O)[C@H](O)[C@H](CC1CCCCC1)NC(=O)[C@H](Cc1cnc[nH]1)NC(=O)COc1cccc2ccccc12)C(=O)NCc1ccccn1 | IIIB |  | H9 | 0.8 µM
O=C1N(Cc2ccc(CO)cc2)[C@H](Cc2ccccc2)[C@H](O)[C@@H](O)[C@@H](Cc2ccccc2)N1Cc1ccc(CO)cc1 | RF |  | PBMC | 0.11 µM
Cn1cc(C(=O)N[C@@H](CC(N)=O)C(=O)N[C@@H](Cc2ccccc2)[C@H](O)C(=O)N2C[C@@H](Cl)C[C@H]2C(=O)NC(C)(C)C)c2ccccc21 | IIIB |  | CEM | 0.2 µM
CC(C)(C)NC(=O)[C@@H]1[C@H]2CCCC[C@H]2CN1C(=O)[C@@H](O)[C@H](Cc1ccccc1)NC(=O)[C@H](CC(N)=O)NC(=O)COc1cccc2ccccc12 | RF |  | MT-2 | 0.144 µM
CCCc1c([Se]c2ccccc2)n(COCCO)c(=O)[nH]c1=O | Cat #3 strain |  | MT-2 | 8.8 µM
CC(C)CN(C[C@@H](O)[C@H](Cc1ccccc1)NC(=O)O[C@H]1CCOC1)S(=O)(=O)c1ccc(N)cc1 | NL4-3 | PR-D30N M46I A71V | MT-4 | 0.04 µM
Cc1c(O)cccc1C(=O)N[C@@H](CSc1ccccc1)[C@H](O)CN1C[C@H]2CCCC[C@H]2C[C@H]1C(=O)NC(C)(C)C | NL4-3 X4 |  | PBMC | 0.075 µM
CCc1cc(NCc2nc3c(Cl)ccc(Cl)c3o2)c(=O)[nH]c1C | R88703-resistant IIIB (RT Y181C) | RT-Y181C | MT-4 | 7.7 µM
CC(C)(C)OC(=O)N[C@@H](Cc1ccccc1)[C@@H](O)C[C@@H](Cc1ccc(OCc2nn[nH]n2)cc1)C(=O)N[C@H]1c2ccccc2C[C@H]1O | IIIB |  | H9 | >10 µM
CC(C)(C)NC(=O)[C@@H]1C[C@@H]2CCCC[C@@H]2N1C(=O)[C@@H](O)[C@H](Cc1ccccc1)NC(=O)[C@H](CC(N)=O)NC(=O)COc1cccc2ccccc12 | RF |  | MT-2 | 0.035–0.14 µM
Cc1cc(O)c(C)c(C(=O)N[C@@H](Cc2ccccc2)[C@H](O)C(=O)N2C[C@@H](Cl)C[C@H]2C(=O)NC(C)(C)C)c1 | IIIB |  | CEM | 0.115 µM
CC(C)Nc1cccnc1N1CCN(C(=O)c2cc3cc(NS(C)(=O)=O)ccc3[nH]2)CC1 | 458 clinical isolates delavirdine-resistant |  | PBMC | 7.7 µM
CC(C)(C)NC(=O)C1N(C(=O)[C@@H](O)[C@H](Cc2ccccc2)NC(=O)[C@H](CS(C)(=O)=O)NC(=O)COc2cccc3ccccc23)CSC1(C)C | Clinical isolates |  | PBMC | 0.05 µM
O=c1[nH]cnc2c1ncn2[C@H]1CC[C@@H](CO)O1 | XM-T69SSS | RT-T69SSS L210W T215Y | MT-4 | 8.8 µM
CCO/N=C(\c1ccc(Br)cc1)C1CCN(C2(C)CCN(C(=O)c3c(C)cc[n+]([O-])c3C)CC2)CC1 | JR-FL R5 |  | PBMC | 0.056 µM
CSC[C@H](NC(=O)COc1cccc2cnccc12)C(=O)N[C@@H](Cc1ccccc1)[C@H](O)C(=O)N1CSC(C)(C)[C@H]1C(=O)NC(C)(C)C | Clinical isolates |  | PBMC | 0.04 µM
CC(C)NC(=O)[C@@H]1C[C@@H]2CCCC[C@@H]2N1C(=O)[C@@H](O)[C@H](Cc1ccccc1)NC(=O)[C@@H](NC(=O)COc1cccc2ccccc12)C(C)C | RF |  | MT-2 | 0.035–0.16 µM

The last 2 rows once more:

compound | strain | changes | cells | result
CSC[C@H](NC(=O)COc1cccc2cnccc12)C(=O)N[C@@H](Cc1ccccc1)[C@H](O)C(=O)N1CSC(C)(C)[C@H]1C(=O)NC(C)(C)C | Clinical isolates |  | PBMC | 0.04 µM
CC(C)NC(=O)[C@@H]1C[C@@H]2CCCC[C@@H]2N1C(=O)[C@@H](O)[C@H](Cc1ccccc1)NC(=O)[C@@H](NC(=O)COc1cccc2ccccc12)C(C)C | RF |  | MT-2 | 0.035–0.16 µM